Data as given in PubChem BioAssay AID1259414 (Drosophila RNAi Screening Center, 2018)
Assay: 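Genome-wide screen for host control of endosymbiont load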 (primary screen). System: Drosophila JW18 cells infected with Wolbachia. Reagent: long dsRNA against Drosophila genes, 0.25 µg dsRNA per well of a 384-well plate. Time to read-out: 5 days. Conditions: cells persistently infected with Wolbachia before knock-down; no added drug. Detection: 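Imaged fluorescence in situ signal for Wolbachia 23S rRNA per DAPI-counted host cell, given as a robust z-score within each plate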. Scale: Wolbachia per cell robust z: higher = more Wolbachia per host cell than the plate typical. Active means: 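Hit when robust z is 1.5 or more, or -1.5 or less, in at least two of three replicates; excludes dsRNAs with several or no targets, genes not expressed in JW18 and well A1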.
The screen tested about 24,000 reagents; shown is a random part of those that have a named target and a result. In the full data, about 1,210 (5%) got an active call. 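Inactive calls also include excluded dsRNAs with several or no targets, genes unexpressed in JW18, and well A1, regardless of score.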 A plus sign joins genes that one reagent is predicted to hit. Reagent sequences are not shown.

target gene | amplicon | Wolbachia per cell robust z, rep 1 | Wolbachia per cell robust z, rep 2 | Wolbachia per cell robust z, rep 3 | call
Pex1 (Peroxin 1) | DRSC11358 | 0.948 | -0.279 | -0.507 | inactive
CG14402 | DRSC02386 | 0.346 | -1.16 | -0.0642 | inactive
Dbp80 (Dead box protein 80) | DRSC22034 | 0.219 | 0.152 | 1.25 | inactive
Sbds (SBDS ribosome maturation factor) | DRSC10992 | 0.424 | 0.968 | -1.03 | inactive
MED15 (Mediator complex subunit 15) | DRSC00267 | 0.0801 | -1.37 | -0.722 | inactive
MED15 (Mediator complex subunit 15) | DRSC23615 | 0.331 | 0.662 | -1.4 | inactive
CG9062 | DRSC07327 | -2.13 | -1.01 | -0.684 | inactive
CG9062 | DRSC27558 | -4.37 | -2.39 | -1.58 | active
CG9259 | DRSC03174 | 0.751 | 0.442 | 1.22 | inactive
Pgm2b (Phosphoglucomutase 2b) | DRSC05978 | 1.26 | 0.236 | -0.839 | inactive
Pgm2b (Phosphoglucomutase 2b) | DRSC26452 | 0.0726 | 0.16 | -0.784 | inactive
CG44838 | DRSC10179 | 1.58 | 1.41 | 1.97 | inactive
CG44838 | DRSC10371 | -0.249 | 0.881 | 0.19 | inactive
CG44838 | DRSC25107 | -7.58 | 1.05 | -9.94 | inactive
CG44838 | DRSC28801 | 0.952 | 0.536 | -0.913 | inactive
CG31715 | DRSC21607 | 0.599 | 0.544 | 0.586 | inactive
CG17105 | DRSC02574 | 1.16 | 0.322 | 0.111 | inactive
CG17105 | DRSC26156 | -1.22 | -0.161 | -1.32 | inactive
PAPLA1 (Phosphatidic Acid Phospholipase A1) | DRSC03095 | 0.649 | -6.7 | -0.34 | inactive
PAPLA1 (Phosphatidic Acid Phospholipase A1) | DRSC03096 | 0.724 | 0.467 | 0.905 | inactive
Gdap1 | DRSC10437 | 1.4 | 0.552 | -0.491 | inactive
Gdap1 | DRSC28286 | -0.735 | -2.76 | -0.163 | inactive
CG10164 | DRSC14197 | -0.12 | -1.61 | 0.31 | inactive
ReepB (Receptor expression enhancing protein B) | DRSC07150 | -1.23 | -0.107 | 0.109 | inactive
ReepB (Receptor expression enhancing protein B) | DRSC27133 | 1.4 | -0.217 | 1.02 | inactive
shakB (shaking B) | DRSC20423 | 0.306 | -2.16 | 1.05 | inactive
shakB (shaking B) | DRSC20585 | -1.2 | -1.52 | -2.72 | inactive
shakB (shaking B) | DRSC21445 | 0.974 | 0.736 | 0.861 | inactive
shakB (shaking B) | DRSC22817 | -1.67 | -3.19 | -2.31 | inactive
shakB (shaking B) | DRSC26262 | -1.47 | -1.36 | 0.00055 | inactive
shakB (shaking B) | DRSC40761 | 0.011 | -0.702 | -2.19 | inactive
Grp170 (Grp170 co-chaperone) | DRSC18524 | 0.0309 | 0.737 | -0.163 | inactive
Grp170 (Grp170 co-chaperone) | DRSC24799 | -0.0513 | -0.336 | -0.57 | inactive
CkIIalpha (casein kinase IIalpha) | DRSC11946 | 0.846 | 0.161 | 1.72 | inactive
CkIIalpha (casein kinase IIalpha) | DRSC40838 | -1.04 | -0.808 | -1.32 | inactive
Dus1 (Dihydrouridine synthase 1) | DRSC00623 | 1.01 | 0.0949 | -1.34 | inactive
Cyp6a9 (Cytochrome P450 6a9) | DRSC07385 | -2.88 | -0.52 | -0.465 | inactive
CG10208 | DRSC14211 | -0.104 | -0.701 | -0.71 | inactive
Yip1d1 (Yip1 domain-containing 1) | DRSC02166 | -0.455 | 0.139 | -0.588 | inactive
fzo (fuzzy onions) | DRSC16954 | -0.798 | -1.31 | -0.597 | inactive
sordd1 | DRSC28653 | 1.17 | -0.623 | -0.676 | inactive
CG15923 | DRSC15129 | 0.762 | 1.43 | -0.55 | inactive
Obp56e (Odorant-binding protein 56e) | DRSC07188 | -4.24 | -0.676 | -0.0235 | inactive
Kdm4B (Lysine demethylase 4B) | DRSC06862 | -0.0842 | -1.62 | 0.393 | inactive
Kdm4B (Lysine demethylase 4B) | DRSC26702 | -1.11 | -0.04 | 0.349 | inactive
vnc + CG42455 | DRSC09867 | 1.46 | -0.958 | 0.933 | inactive
CG4000 | DRSC15535 | -1.45 | 1.01 | 0.659 | inactive
CG4000 | DRSC21547 | 0.358 | -0.178 | -0.0434 | inactive
CG4000 | DRSC25094 | -0.0235 | 1.05 | 0.0893 | inactive
CG32815 | DRSC18177 | -0.768 | -0.209 | 0.667 | inactive
CG32815 | DRSC18179 | -1.63 | -0.79 | -2.98 | active
CG12498 | DRSC18635 | 0.433 | -0.267 | 0.608 | inactive
CG3788 | DRSC04418 | 0.656 | -3.65 | 1.61 | inactive
CG3788 | DRSC24502 | 1.34 | -0.0784 | 0.123 | inactive
Bhmt (Betaine-homocysteine S-methyltransferase) | DRSC02079 | -1.77 | -4.88 | -0.744 | active
Bhmt (Betaine-homocysteine S-methyltransferase) | DRSC25655 | -0.34 | -0.165 | -0.493 | inactive
Arpc1 (Actin-related protein 2/3 complex, subunit 1) | DRSC03438 | 2.1 | -0.956 | 0.0748 | inactive
Arpc1 (Actin-related protein 2/3 complex, subunit 1) | DRSC29641 | 1.01 | -1.07 | 0.818 | inactive
Try29F (Trypsin 29F) | DRSC03466 | -5.28 | -0.227 | -0.412 | inactive
Try29F (Trypsin 29F) | DRSC25721 | -2.48 | -2.01 | -1.46 | active
Cnx99A (Calnexin 99A) | DRSC25426 | -0.841 | 0.733 | 0.484 | inactive
daed (daedalus) | DRSC00299 | -1.41 | 0.914 | 0.0988 | inactive
sl (small wing) | DRSC20377 | 1.01 | -1.64 | 1.71 | inactive
sl (small wing) | DRSC21782 | 0.476 | -0.0706 | 0.176 | inactive
rux (roughex) | DRSC18829 | -16.9 | -7.46 | -2.39 | active
Moe (Moesin) | DRSC18684 | -0.822 | 0.604 | -2.16 | inactive
Moe (Moesin) | DRSC39153 | -1.8 | -4.35 | -3.34 | active
CG42268 | DRSC10171 | -0.816 | 0.539 | -1.04 | inactive
CG42268 | DRSC10702 | 0.693 | -0.912 | -1.56 | inactive
CG42268 | DRSC21797 | 0.413 | 0.279 | -0.172 | inactive
CG42268 | DRSC25299 | 1.76 | 0.164 | 2.37 | inactive
CG42268 | DRSC29387 | 1.2 | 0.123 | -0.216 | inactive
wcy (wacky) | DRSC20132 | 1.49 | 0.949 | -0.812 | inactive
wcy (wacky) | DRSC26455 | -1.74 | 0.924 | 0.97 | inactive
Jra (Jun-related antigen) | DRSC07447 | -0.109 | 0.708 | -1.3 | inactive
Jra (Jun-related antigen) | DRSC27606 | -0.127 | -1.3 | 0.823 | inactive
Usp5 (Ubiquitin specific protease 5) | DRSC08244 | -0.39 | 1.11 | -1.86 | inactive
Usp5 (Ubiquitin specific protease 5) | DRSC28531 | -0.246 | -1.02 | 0.394 | inactive
CG16926 | DRSC06637 | 0.624 | 0.509 | 0.982 | inactive
SIDL (Shal Interactor of Di-Leucine Motif) | DRSC16077 | 1.25 | -0.349 | 1.76 | inactive
CG11192 | DRSC06057 | -3.85 | 0.493 | 1.19 | inactive
CG11192 | DRSC25902 | -1.25 | -3.58 | -4.31 | inactive
Cyp6g2 (Cytochrome P450 6g2) | DRSC07387 | 1.53 | 1.05 | 0.79 | inactive
Cyp6g2 (Cytochrome P450 6g2) | DRSC29325 | -0.186 | 0.0196 | -3.52 | inactive
Alp7 (Alkaline phosphatase 7) | DRSC04355 | 1.58 | -0.859 | -1.19 | inactive
Alp7 (Alkaline phosphatase 7) | DRSC27071 | 0.513 | -0.266 | 0.934 | inactive
CG10137 | DRSC02014 | 0.276 | -0.993 | -1.45 | inactive
CG10137 | DRSC02015 | -1.3 | -0.46 | -1.36 | inactive
CG10137 | DRSC27098 | -1.32 | -0.00251 | 0.221 | inactive
